This is a selection; strong and weak results do not stand in their true shares. Calls of active or inactive are those of the source. Calls follow the shape of the dose curve; as a rule, active = well fitted inhibition curve with a large enough effect; inconclusive = small, poorly fitted or top-dose-only effect; inactive = no such curve, though single readings can be large or run the other way.

For this experiment, the system named is Plasmodium falciparum AMA1 (3D7) - RON2 peptide interaction. Description: qHTS for Inhibitors of AMA1-RON; Towards Development of Antimalarial Drug Lead: Primary Screen.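 Also: 0% = vehicle wells and -100% = peptide control; nearly all actives have a fitted effect of over 45% in size.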 As to conditions: AlphaScreen AMA1-biotinylated RON2 peptide binding; at 58.2 µM (top of the series) unless noted. (qHTS replaces the single test concentration by a dilution series.)
In the case of `CP(=S)(Nn1cnnc1)Oc1ccccc1` (configuration not stated), the activity change, negative = inhibition is inactive: 27.2%.
The value for `COc1ccccc1OP(C)(=O)Nc1ccccc1` (configuration not stated) was inactive: 11.4%.
For the compound `CP(=O)(Nc1ccccc1Br)Oc1ccccc1` (configuration not stated), the activity change, negative = inhibition is inactive: 4.9%.
The value for `CP(=O)(Oc1ccccc1)OC(c1ccccc1)C(F)(F)F` (configuration not stated) was inactive: -2.25%.
On to `CP(=O)(Nc1ccc(SC(F)(F)F)cc1)Oc1ccc(Cl)cc1` (configuration not stated), for which the activity change, negative = inhibition was inactive: 1.19%.
The value for `Cc1cccc(C)c1OP(C)(=O)Nc1ccc(SC(F)(F)F)cc1` (configuration not stated) was inactive: -11.8% [at 2.32 µM]; that for `Cc1cc(C)cc(OP(C)(=O)Nc2ccc(SC(F)(F)F)cc2)c1` (configuration not stated) was inactive: 0%; that for `CP(=O)(NC(=O)Nc1ccccc1)Oc1ccccc1` (configuration not stated) was inactive: 33.7%.
To `CCOP(C)(=S)SCC(=O)NC(C)C(=O)O` (configuration not stated) belongs inactive: 4.01%.
On to `O=[N+]([O-])c1cc([N+](=O)[O-])c(O)c([N+](=O)[O-])c1.c1ccc(Oc2ccncc2)cc1`, for which the activity change, negative = inhibition was inactive: 3.96%.
The value for `CCOC(=O)c1ccc(NP(C)(=O)Oc2ccc(OC)cc2)cc1` (configuration not stated) was inactive: 10.9%; that for `CP(=O)(Nc1ccccn1)Oc1ccc(Cl)cc1` (configuration not stated) was inactive: -2.88%; that for `CCN(CC)CCCOC(=O)C(O)(c1ccccc1)c1ccccc1` was inactive: 0.0737%.
To `COc1ccccc1-c1ccccn1.O=[N+]([O-])c1cc([N+](=O)[O-])c(O)c([N+](=O)[O-])c1` belongs inactive: -5.49%; to `O=[N+]([O-])c1cc([N+](=O)[O-])c(Nc2cccnc2)c([N+](=O)[O-])c1`, inactive: -7.43%; to `Cc1cccc(C)c1OP(C)(N)=O` (configuration not stated), inactive: 0.758%.
The value for `CC(C)(C)c1ccc(OP(C)(=O)Nc2ccc(SC(F)(F)F)cc2)cc1` (configuration not stated) was inactive: -29.1%; that for `O=[N+]([O-])c1ccc2c(c1)C=Nc1ccccc1O2` was inactive: -21%; that for `CCOC(=O)c1ccc(NP(C)(=O)Oc2ccccc2)cc1` (configuration not stated) was inactive: 20.5%.
As for `Cc1ccc(NP(C)(=O)Oc2ccccc2)c(C)c1` (configuration not stated), the activity change, negative = inhibition is inactive: 0.926%.
To `COc1ccccc1OP(C)(=O)Nc1ccc(C)cc1` (configuration not stated) belongs inactive: -1.69%; to `COc1ccc(OP(C)(=O)Nc2cccc(F)c2)cc1` (configuration not stated), inactive: -0.685%.
The value for `COc1ccccc1OP(C)(=O)Nc1cc(Cl)ccc1C` (configuration not stated) was inactive: -7.15%; that for `Cc1cc(C)cc(OP(C)(N)=O)c1` (configuration not stated) was inactive: -18.8%.
As for `CC1=NCCc2c1[nH]c1ccccc21.O=[N+]([O-])c1cc([N+](=O)[O-])c(O)c([N+](=O)[O-])c1`, the activity change, negative = inhibition was inactive: -19.1%.
In the case of `COc1ccccc1OP(C)(=O)Nc1cccc(Br)c1` (configuration not stated), the activity change, negative = inhibition was inactive: 8.33%.
Consider `Cc1cc(C)cc(OP(C)(=O)Nc2ccc(C)cc2C)c1` (configuration not stated), for which the activity change, negative = inhibition is inactive: -1.96%.
The value for `CCOC(=O)c1ccc(NP(C)(=O)Oc2cc(C)cc(C)c2)cc1` (configuration not stated) was inactive: -0.656%.
For the compound `CP(=O)(Nc1cccc(Br)c1)Oc1ccccc1` (configuration not stated), the activity change, negative = inhibition is inactive: 0.0297%.
In the case of `Cc1cc(C)cc(OP(C)(=O)Nc2ccccn2)c1` (configuration not stated), the activity change, negative = inhibition is inactive: 6.55%.
The value for `Cc1ccc(C)c(NP(C)(=O)Oc2ccccc2)c1` (configuration not stated) was inactive: -14.4%; that for `O=[N+]([O-])c1cc([N+](=O)[O-])c(-n2nnc3ccccc32)c([N+](=O)[O-])c1` was inactive: 0%.
The value for `CN(Cc1cccnc1)C(=O)COc1ccc(Cl)c(Cl)c1.O=[N+]([O-])c1cc([N+](=O)[O-])c(O)c([N+](=O)[O-])c1` was inactive: -11.6%; that for `Cc1nc2ccc3ccccc3c2s1.O=[N+]([O-])c1cc([N+](=O)[O-])c(O)c([N+](=O)[O-])c1` was inactive: 12.3%.
The value for `O=[N+]([O-])c1cc([N+](=O)[O-])c(Nc2nnnn2CCO)c([N+](=O)[O-])c1` was inactive: -4.55%; that for `CC1=C2N=C(C=C3N=C(C(C)=C4[N-][C@@](C)([C@@H]5N=C1[C@](C)(CCC(=O)NC[C@@H](C)OP(=O)([O-])O[C@H]1[C@@H](O)[C@@H](n6cnc7cc(C)c(C)cc76)O[C@@H]1CO)[C@H]5CC(N)=O)[C@@](C)(CC(N)=O)[C@@H]4CCC(N)=O)[C@@](C)(CC(N)=O)[C@@H]3CCC(N)=O)C(C)(C)[C@@H]2CCC(N)=O.[C-]#N.[Co+3]` was inactive: -12%.
As for `CN1CCCCC1COC(=O)C1(O)c2ccccc2CCc2ccccc21` (configuration not stated), the activity change, negative = inhibition is inactive: 9.17% [at 11.6 µM].
The value for `COc1ccccc1OP(C)(=O)Nc1c(C)cccc1C` (configuration not stated) was inactive: 5.45%; that for `CP(=O)(Nc1ccc(SC(F)(F)F)cc1)Oc1ccccc1` (configuration not stated) was inactive: 20.7%.
Turning to `CCCOc1ccc(NP(C)(=O)Oc2ccc(Cl)cc2)cc1` (configuration not stated), the activity change, negative = inhibition is inactive: 6.63%.
To `COc1ccc(-c2ccccn2)cc1.O=[N+]([O-])c1cc([N+](=O)[O-])c(O)c([N+](=O)[O-])c1` belongs inactive: 1.71%; to `COc1ccc(OP(C)(=O)Nc2cccc(Br)c2)cc1` (configuration not stated), inactive: -1.66%.
The value for `COc1ccc(NP(C)(=O)Oc2ccccc2OC)cc1` (configuration not stated) was inactive: 6.21%; that for `CN(C)CCOC(=O)C(O)(c1ccccc1)C1CCCCC1` (configuration not stated) was inactive: -3.73%; that for `Cc1cc(-c2cccc3ccccc23)c(C)cn1.O=[N+]([O-])c1cc([N+](=O)[O-])c(O)c([N+](=O)[O-])c1` was inactive: -3.99%.
The value for `O=[N+]([O-])c1ccc(OP2(=O)COCCO2)cc1` (configuration not stated) was inactive: 8.41%.
As for `Cc1c(C(c2ccc3c(c2)OCO3)c2c(C)n(C)n(-c3ccccc3)c2=O)c(=O)n(-c2ccccc2)n1C.O=[N+]([O-])c1cc([N+](=O)[O-])c(O)c([N+](=O)[O-])c1`, the activity change, negative = inhibition is inactive: 11.7%.
To `CP(=O)(Nc1ccc(SC(F)(F)F)cc1)Oc1ccc(F)cc1` (configuration not stated) belongs inactive: 0%.
To `CCOP(C)(=S)SCC(=O)NC(C)(CC)C(=O)O` (configuration not stated) belongs inactive: 21.9%; to `CP(=O)(Nc1ccc2c(c1)OCCO2)Oc1ccccc1` (configuration not stated), inactive: -10.3%.
To `O=[N+]([O-])c1cc([N+](=O)[O-])c(C(F)(F)F)c([N+](=O)[O-])c1O` belongs inactive: -2.56%.
Regarding `Cc1ccccc1NP(C)(=O)Nc1ccccc1C`, the activity change, negative = inhibition is inactive: 11.2%.
In the case of `CC(C)c1ccc(OP(C)(=O)Nc2ccc(SC(F)(F)F)cc2)cc1` (configuration not stated), the activity change, negative = inhibition was inactive: 16.3%.
To `CP(=O)(Nc1ccccc1F)Oc1ccccc1` (configuration not stated) belongs inactive: 4.85%.
To `O=C(OCCN1CCN(CCOCc2ccccc2)CC1)C(O)(c1ccccc1)c1ccccc1` belongs inactive: -15.8%; to `COc1ccc(OP(C)(=O)Nc2ccc(SC(F)(F)F)cc2)cc1` (configuration not stated), inactive: 3.58%; to `CCOC(=O)c1ccc(NP(C)(=O)Oc2ccc(F)cc2)cc1` (configuration not stated), inactive: -4.68%.
To `CCN(CC)CCCOC(=O)C(O)(c1ccccc1)C1CCCCC1` (configuration not stated) belongs inactive: -1.7%.
Take `Cc1c([N+](=O)[O-])cc([N+](=O)[O-])c(Br)c1[N+](=O)[O-]`: the activity change, negative = inhibition was inactive: -21.7%.
The value for `CCCCCOc1ccc(NP(C)(=O)Oc2ccc(Cl)cc2Cl)cc1` (configuration not stated) was inactive: 0%.
With `CP(=O)(Nc1ccccc1)Oc1ccc(F)cc1` (configuration not stated), the activity change, negative = inhibition is inactive: 11.8%.
The value for `Cc1cc(C)cc(OP(C)(=O)Nc2cccc(C(F)(F)F)c2)c1` (configuration not stated) was inactive: 7.03%.
To `COc1ccc(OP(C)(=O)Nc2ccccc2Br)cc1` (configuration not stated) belongs inactive: 4.68%; to `COc1ccccc1OP(C)(=O)Nc1ccc(C)c(C)c1` (configuration not stated), inactive: -2.25%.
As to `CP(=O)(OCCOc1ccccc1)OCCOc1ccccc1`, the activity change, negative = inhibition was inactive: -1.4%.
For the compound `CP(=O)(Nc1ccc(Cl)cc1Cl)Oc1ccccc1` (configuration not stated), the activity change, negative = inhibition was inactive: 0%.
To `CCCCCCCCCCCCCCCC1C[N+](C)(C)CCOP(C)(=O)O1` (configuration not stated) belongs inactive: -5.06%; to `COc1ccccc1OP(C)(=O)Nc1ccc(Br)cc1` (configuration not stated), inactive: -0.872%.
To `COc1ccc(OP(C)(=O)Nc2ccccn2)cc1` (configuration not stated) belongs inactive: -4.03%; to `O=[N+]([O-])c1cc([N+](=O)[O-])c(Nc2ccccn2)c([N+](=O)[O-])c1`, inactive: -24.1%.
The value for `Cc1c(NP(C)(=O)Oc2ccc(C(C)C)cc2)c(=O)n(-c2ccccc2)n1C` (configuration not stated) was inactive: -0.0937%; that for `CCc1ccc(OP(C)(=O)O)cc1` was inactive: -3.42%; that for `COc1ccccc1OP(C)(=O)Nc1ccc(C)cc1C` (configuration not stated) was inactive: -4.61%.
As for `CP(=O)(Nc1ccccn1)Oc1ccccc1` (configuration not stated), the activity change, negative = inhibition was inactive: -12.9%.
To `COc1ccc(OP(C)(=O)Nc2ccc(Br)cc2)cc1` (configuration not stated) belongs inactive: -16.6%; to `CCN(CC)CC(O)COC(=O)C(O)(c1ccccc1)C1CCCCC1` (configuration not stated), inactive: -8.75%; to `CCc1ccc(OP(C)(=O)Nc2cccnc2)cc1` (configuration not stated), inactive: -10.1%.
The value for `CP(=O)(Oc1ccccc1)N1CCOC1=O` (configuration not stated) was inactive: -1.98%; that for `O=C(OCCCN1CCCC1)C(O)(c1ccccc1)C1CCCCC1` (configuration not stated) was inactive: 2.51%; that for `COc1ccccc1OP(C)(=O)Nc1c(C)n(C)n(-c2ccccc2)c1=O` (configuration not stated) was inactive: -8.1%.
`CP(=O)(Nc1ccc(Cl)cc1)Oc1ccc(F)cc1` (configuration not stated): the activity change, negative = inhibition is inactive: 0%.
To `CC(C)(C)c1ccc(OP(C)(=O)O)cc1` belongs inactive: -17.9%.
Take `COc1ccccc1OP(C)(=O)Nc1ccccc1Br` (configuration not stated): the activity change, negative = inhibition was inactive: 7.54%.
The value for `CN(C)C(=O)c1c([N+](=O)[O-])cc([N+](=O)[O-])cc1[N+](=O)[O-]` was inactive: 10%.
To `Nc1ccc2c(ccc3cccnc32)n1.O=[N+]([O-])c1cc([N+](=O)[O-])c(O)c([N+](=O)[O-])c1` belongs inactive: -9.61%.
To `CP(=O)(OC12CC3CC(CC(C3)C1)C2)OC12CC3CC(CC(C3)C1)C2` belongs inactive: -12.2%; to `CCOC(=O)c1ccc(NP(C)(=O)Oc2ccc(Cl)cc2)cc1` (configuration not stated), inactive: -0.696%.

(Values after PubChem BioAssay AID720542 (National Center for Advancing Translational Sciences (NCATS), 2013).)
